Values from PubChem BioAssay AID1224833 (University of Georgia, 2016).

Assay: 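Human genes whose knock-down alters rotavirus replication in monkey cells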 (primary screen)
Cell system: monkey MA104 kidney cells
Reagent: siRNA pool against human genes, 50 nM
Timing: 48 h knock-down before infection; read 24 h after infection
Challenge: infection with rotavirus strain RV3 two days after transfection; infectious dose for this stage not given
Detection: 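Rotavirus antigen per well by fluorescent immunoassay, normalised to non-targeting control wells on each plate and given as a standard z-score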
Reading the numbers: z-score vs non-targeting control: higher = more rotavirus replication than with non-targeting control
Active means: In these data the active calls have z-score vs non-targeting control at about -1 or lower, or at about 1 or higher
Calls: active = z-score beyond 1 either way; inactive = z-score within 1 of zero
This is a random part of about 12,000 deposited reagents. In the full data, about 5,600 (46%) got an active call. 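Active calls cover z-scores past 1 in both directions, so they include lowered as well as raised rotavirus replication.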 Unmarked entries are inactive. No sequences are given here.

Target gene | z-score vs non-targeting control
TBX18 (T-box transcription factor 18) | -0.988
S100A2 (S100 calcium binding protein A2) | -0.311
LHX4 (LIM homeobox 4) | -1.75 (active)
N4BP3 (NEDD4 binding protein 3) | -1.29 (active)
SLC22A9 | -2.26 (active)
TCTN1 (tectonic family member 1) | -0.745
CYP2D6 | -1.42 (active)
PABPC1 (poly(A) binding protein cytoplasmic 1) | -0.961
CCDC152 (coiled-coil domain containing 152) | -1.43 (active)
SLC17A4 | 1.33 (active)
ALDH4A1 (aldehyde dehydrogenase 4 family member A1) | -0.87
MARS1 (methionyl-tRNA synthetase 1) | -2.11 (active)
FOXQ1 (forkhead box Q1) | -2.72 (active)
TUBB (tubulin beta class I) | 1.38 (active)
CGB1 (chorionic gonadotropin subunit beta 1) | -1.09 (active)
ZNF683 (zinc finger protein 683) | -0.697
ARX (aristaless related homeobox) | -0.951
ADRB1 (adrenoceptor beta 1) | -1.85 (active)
GIP (gastric inhibitory polypeptide) | -1.04 (active)
DTD2 (D-aminoacyl-tRNA deacylase 2) | 0.0248
LINC03040 (long independently transcribed non-coding RNA 3040) | -1.37 (active)
OR5AK2 (olfactory receptor family 5 subfamily AK member 2) | 2.23 (active)
FAM53B (family with sequence similarity 53 member B) | 1.06 (active)
C20orf144 (chromosome 20 open reading frame 144) | -1.44 (active)
OR5M9 (olfactory receptor family 5 subfamily M member 9) | 0.436
ARHGEF4 (Rho guanine nucleotide exchange factor 4) | 0.187
PGAP4 (post-GPI attachment to proteins GalNAc transferase 4) | -1.04 (active)
FFAR2 (free fatty acid receptor 2) | 3 (active)
R3HDM2 (R3H domain containing 2) | -1.45 (active)
MRFAP1L1 (Morf4 family associated protein 1 like 1) | 0.228
TMBIM1 (transmembrane BAX inhibitor motif containing 1) | 1.05 (active)
CDC37 (cell division cycle 37, HSP90 cochaperone) | 0.136
IGF2BP2 (insulin like growth factor 2 mRNA binding protein 2) | 1.27 (active)
PIP4P1 (phosphatidylinositol-4,5-bisphosphate 4-phosphatase 1) | -0.437
MPP7 (MAGUK p55 scaffold protein 7) | 2.89 (active)
MIOX (myo-inositol oxygenase) | -0.5
TRIP4 (thyroid hormone receptor interactor 4) | -1.87 (active)
RCN2 (reticulocalbin 2) | -1.36 (active)
OTUD6A (OTU deubiquitinase 6A) | -0.978
PSMB9 (proteasome 20S subunit beta 9) | 0.899
RGS10 (regulator of G protein signaling 10) | -2.31 (active)
DPAGT1 (dolichyl-phosphate N-acetylglucosaminephosphotransferase 1) | -1.3 (active)
CMTM3 (CKLF like MARVEL transmembrane domain containing 3) | -2.39 (active)
DPH1 (diphthamide biosynthesis 1) | 0.917
IFNA21 (interferon alpha 21) | 0.967
KLHL15 (kelch like family member 15) | -1.97 (active)
CDC45 (cell division cycle 45) | -0.281
FAM13C (family with sequence similarity 13 member C) | -1.11 (active)
OR6C70 (olfactory receptor family 6 subfamily C member 70) | -0.799
SCGB1D1 (secretoglobin family 1D member 1) | -0.927
TRAF3IP3 (TRAF3 interacting protein 3) | -0.306
ALOX5 (arachidonate 5-lipoxygenase) | -0.937
SUZ12 (SUZ12 polycomb repressive complex 2 subunit) | -0.566
SEC22A (SEC22 homolog A, vesicle trafficking protein) | -0.188
SLC25A42 | 0.654
AFG2B (AAA ATPase AFG2B) | -1.18 (active)
WASF2 (WASP family member 2) | -0.534
CELA3B (chymotrypsin like elastase 3B) | 2.2 (active)
MINDY1 (MINDY lysine 48 deubiquitinase 1) | -0.88
UFC1 (ubiquitin-fold modifier conjugating enzyme 1) | 1.8 (active)
OSTC (oligosaccharyltransferase complex non-catalytic subunit) | 1.39 (active)
FLNA (filamin A) | 3.31 (active)
KRTAP5-6 (keratin associated protein 5-6) | 0.486
TREH (trehalase) | -1.48 (active)
NOVA1 (NOVA alternative splicing regulator 1) | 0.212
RMDN2 (regulator of microtubule dynamics 2) | -1.02 (active)
DYNC2H1 (dynein cytoplasmic 2 heavy chain 1) | 0.657
FNDC3B (fibronectin type III domain containing 3B) | -0.114
LAMA1 (laminin subunit alpha 1) | 0.405
PTMS (parathymosin) | 0.62
PDE10A (phosphodiesterase 10A) | -0.565
THG1L (tRNA-histidine guanylyltransferase 1 like) | 0.964
OR2AK2 (olfactory receptor family 2 subfamily AK member 2) | -1.1 (active)
OR11G2 (olfactory receptor family 11 subfamily G member 2) | -0.4
RAB27B (RAB27B, member RAS oncogene family) | 1.69 (active)
FHDC1 (FH2 domain containing 1) | -0.912
GCNT7 (glucosaminyl (N-acetyl) transferase family member 7) | 0.0905
TNFSF13 (TNF superfamily member 13) | -1.12 (active)
NPY4R (neuropeptide Y receptor Y4) | -0.884
PLIN3 (perilipin 3) | 0.188
TMEM39A (transmembrane protein 39A) | -1.88 (active)
SNX20 (sorting nexin 20) | 1.75 (active)
CXADR (CXADR cell adhesion molecule) | -0.726
RGP1 (RGP1 partner of RAB6A GEF complex) | 2.22 (active)
DRC11 (dynein regulatory complex subunit 11) | -1.7 (active)
DIAPH3 (diaphanous related formin 3) | 1.89 (active)
CCNC (cyclin C) | 1.41 (active)
LYSMD2 (LysM domain containing 2) | -0.522
TTC23L (tetratricopeptide repeat domain 23 like) | -2.03 (active)
KLHL22 (kelch like family member 22) | -0.89
ZNF418 (zinc finger protein 418) | -0.61
GSKIP (GSK3B interacting protein) | -0.701
YIPF1 (Yip1 domain family member 1) | -0.848
ACBD5 (acyl-CoA binding domain containing 5) | 2.31 (active)
AGAP3 (ArfGAP with GTPase domain, ankyrin repeat and PH domain 3) | -0.3
LYZL6 (lysozyme like 6) | 0.681
RPL24 (ribosomal protein L24) | -1.27 (active)
MAN1B1 (mannosidase alpha class 1B member 1) | -0.663
SLC24A4 | -1.63 (active)
CCDC89 (coiled-coil domain containing 89) | -0.514
SPAG8 (sperm associated antigen 8) | -0.597
SLC17A5 | 0.643
ZNF12 (zinc finger protein 12) | 0.797
ANK3 (ankyrin 3) | -1.09 (active)
VXN (vexin) | -0.707
TMEM44 (transmembrane protein 44) | -1.88 (active)
SEMA5A (semaphorin 5A) | 0.568
FIP1L1 (factor interacting with PAPOLA and CPSF1) | -0.926
SLC9D1 | -0.293
MUC7 (mucin 7, secreted) | -0.146

Entries listed so far whose gene name begins with S or s (13):
Target gene | z-score vs non-targeting control
S100A2 (S100 calcium binding protein A2) | -0.311
SLC22A9 | -2.26 (active)
SLC17A4 | 1.33 (active)
SCGB1D1 (secretoglobin family 1D member 1) | -0.927
SUZ12 (SUZ12 polycomb repressive complex 2 subunit) | -0.566
SEC22A (SEC22 homolog A, vesicle trafficking protein) | -0.188
SLC25A42 | 0.654
SNX20 (sorting nexin 20) | 1.75 (active)
SLC24A4 | -1.63 (active)
SPAG8 (sperm associated antigen 8) | -0.597
SLC17A5 | 0.643
SEMA5A (semaphorin 5A) | 0.568
SLC9D1 | -0.293
